Measured values from several laboratories, pooled; numbers as filed in NIAID ChemDB.

All rows: growth or infection tests; organism: HIV-1; endpoint: EC50

ECn is the concentration giving n% inhibition of infection, replication or growth. Blank or dashed fields: not listed here. a–b is a range or a potency band. Lines come from different laboratories, so protocols vary.

structure	method	conditions	strain or isolate	cell line	changes	result
Cc1ncc(-c2cnc(OCCC3CC3)c(F)c2)c(N2CCC(C)(C)CC2)c1[C@H](OC(C)(C)C)C(=O)O	luminescence		NL4-3	MT-2		0.0045 µM
Nc1ccc(S(=O)(=O)N(CCC(O)CN(CC2CCCC2)S(=O)(=O)c2ccccc2)CC2CCCC2)cc1	p24		IIIB	CEM		<1 µM
CC(C)C1=C2[C@H]3CC[C@@H]4[C@@]5(C)CC[C@H](OC(=O)[C@H]6C[C@@H](C(=O)O)C6(C)C)C(C)(C)[C@@H]5CC[C@@]4(C)[C@]3(C)CC[C@@]2([C@@H](O)CNC(=O)C2CC2)CC1=O	p24 / ELISA		92HT599	MT-2		<1 µM
Cc1ccc(C)n1-c1ccc(C(=O)O)c(O)c1	luciferase / cell fusion		92UG092 X4 CLADE A	PBMC/5.25M7		10.59 µM
Nc1ccn([C@H]2CC[C@@H](CO)O2)c(=O)n1	β-galactosidase		NL4-3		S241F	0.42 µM
CC(C)CCC[C@@H](C)[C@H]1CCC2C3CCC4C[C@@H](OCc5cn([C@@H]6O[C@H](COS(=O)(=O)[O-])[C@@H](O[C@H]7O[C@H](COS(=O)(=O)[O-])[C@@H](O[C@H]8O[C@H](COS(=O)(=O)[O-])[C@@H](OS(=O)(=O)[O-])[C@H](OS(=O)(=O)[O-])[C@H]8OS(=O)(=O)[O-])[C@H](OS(=O)(=O)[O-])[C@H]7OS(=O)(=O)[O-])[C@H](OS(=O)(=O)[O-])[C@H]6OS(=O)(=O)[O-])nn5)CC[C@]4(C)C3CC[C@@]21C	p24 / ELISA / antigen		HI05-91 isolate (R5)	PBMC		2 µg/mL
CC1(C)CC=C(c2cn(-c3nccc(C(=O)NC4CCC(N5CC6CCC(C5)O6)CC4)n3)c3ccc(F)c([C@H](OC(C)(C)C)C(=O)O)c23)CC1	luminescence		NL4-3	MT-4	H171T	0.054 µM
Cc1ccc(-c2ccc(NC(=O)N3CCC4(CCO4)CC3)cc2)cc1	luminescence	pseudotyped	BJOX2000	TZM-bl		>30 µM
COc1ccc(S(=O)(=O)N(CC(C)C)C[C@@H](O)CCN(CC2CCCC2)S(=O)(=O)Cc2cccc3nc(C)oc23)cc1	p24		IIIB	CEM		<1 µM
CC(C)CN(C[C@@H](O)[C@H](Cc1ccccc1)NC(=O)O[C@H]1CO[C@H]2OCC[C@H]21)S(=O)(=O)c1ccc2nc(NC3CCN(C4CCCC4)CC3)sc2c1	reporter gene		T14434	MT-4	R41T K70E V77I/V	85 nM
Cc1ccc(OCCN(C)c2ccc(-c3cnc(C)c([C@H](OC(C)(C)C)C(=O)O)c3N3CCC(C)(C)CC3)nc2)cc1F	luminescence		NL4-3	MT-2		0.0013 µM
COc1ccc(S(=O)(=O)N(CC(C)C)C[C@@H](O)C[C@H](Cc2ccccc2)CN2CSCC2C(=O)NC(C)(C)C)cc1	p24		IIIB	CEM		<1 µM
C/C=C/CSc1cc(NC(=S)c2ccsc2C)ccc1Cl	p24		NL4-3	CEM + CEM-SS	RT-K103N	4.8 µM
Cc1cn(-c2ccc(C(=O)NC(C)(C)CNC[C@H](O)[C@@]34CC[C@]5(C)[C@H](CC[C@@H]6[C@@]7(C)CC[C@H](OC(=O)[C@H]8C[C@@H](C(=O)O)C8(C)C)C(C)(C)[C@@H]7CC[C@]65C)C3=C(C(C)C)C(=O)C4)cc2)cn1	p24 / ELISA		92HT599	MT-2		<1 µM
COc1ccc(S(=O)(=O)N(CC2CCCC2)C(=O)C(=O)C(=O)[C@@H](Cc2ccccc2)NC(=O)OC2COCOC2)cc1	p24		IIIB	CEM		<1 µM
Cc1cc(S(N)(=O)=O)ccc1NC(=O)COc1ccc(Cl)cc1C(=O)c1cc(Cl)cc(C#N)c1	β-galactosidase		HXB2	HeLa + HELA CD4+	RT-K103N	<0.01 µM
CC(C)C1=C2[C@H]3CC[C@@H]4[C@@]5(C)CC[C@H](OC(=O)[C@H]6C[C@@H](C(=O)O)C6(C)C)C(C)(C)[C@@H]5CC[C@@]4(C)[C@]3(C)CC[C@@]2(CC(=O)NCc2ccccn2)CC1=O	p24 / ELISA		92HT599	MT-2		<1 µM
Cc1cc2[nH]cnc2cc1NC(=O)COc1ccc(Cl)cc1C(=O)c1cc(F)cc(C(F)(F)F)c1	β-galactosidase		HXB2	HeLa + HELA CD4+	RT-L100I	<0.01 µM
CCCC(C(=O)O)c1c(C)nc2ccc(Cl)cc2c1-c1cccc(Cl)c1	luciferase / reporter gene			C8166		<20 µM
Cc1nc2ccccc2c(-c2cc(F)c3c(c2C)CCCO3)c1[C@H](OC(C)(C)C)C(=O)O	luminescence		NL4-3	MT-4	T97A/Y143R	0.014 µM
COc1ccc(S(=O)(=O)N(CC2CCCC2)C[C@@H](O)CN(CCCc2ccccc2)C(=O)O[C@H]2CCOC2)cc1	p24		IIIB	CEM		<0.1 µM
CCCC(C(=O)O)c1c(C)nc2ccc(Cl)cc2c1-c1cccc(OC)c1	luciferase / reporter gene			C8166		<20 µM
Cc1cc(S(N)(=O)=O)ccc1NC(=O)COc1ccc(Cl)cc1C(=O)c1cc(F)cc(C#N)c1	β-galactosidase		HXB2	HeLa + HELA CD4+	RT-Y181C	<0.01 µM
Cc1ccc(OCCNc2ccc(-c3cnc(C)c([C@H](OC(C)(C)C)C(=O)O)c3N3CCC(C)(C)CC3)nc2)cc1F	luminescence		NL4-3	MT-2		0.0016 µM
CCCC(C(=O)O)c1c(C)nc2ccc(Cl)cc2c1-c1ccc(SC)cc1	luciferase / reporter gene			C8166		<20 µM
CCCc1cc(=O)oc2c3c(c4c(c12)OC(C)(C)CC4)O[C@H](C)[C@@H](C)C3=O	cytopathic effect / XTT				RT-Y188H	>100 µM
NC(N)=NCCC[C@H](N)C(=O)NC[C@@H]1OC(O[C@H]2[C@@H](O)[C@H](O[C@@H]3[C@@H](O)[C@H](NC(=O)[C@@H](N)CCCN=C(N)N)C[C@H](NC(=O)[C@@H](N)CCCN=C(N)N)[C@H]3O[C@H]3O[C@H](CNC(=O)[C@@H](N)CCCN=C(N)N)[C@@H](O)[C@H](O)[C@H]3NC(=O)[C@@H](N)CCCN=C(N)N)O[C@@H]2CO)[C@H](NC(=O)[C@@H](N)CCCN=C(N)N)[C@@H](O)[C@@H]1O	p24 / RT activity		IIIB	MT-2	AZT-resistant	2.7 µM
CCCC(C(=O)O)c1c(C)nc2ccc(Cl)cc2c1-c1ccc(F)cc1	luciferase / reporter gene			C8166		<20 µM
Cc1cccc(C)c1OCCN(C)c1ccc(-c2cnc(C)c([C@H](OC(C)(C)C)C(=O)O)c2N2CCC(C)(C)CC2)cn1	luminescence		NL4-3	MT-2		0.0025 µM
COc1ccc(S(=O)(=O)N(CC(C)C)C[C@@H](O)CCN(CC2CCCC2)S(=O)(=O)c2ccccn2)cc1	p24		IIIB	CEM		<1 µM
CC(C)C1=C2[C@H]3CC[C@@H]4[C@@]5(C)CC[C@H](OC(=O)[C@H]6C[C@@H](C(=O)O)C6(C)C)C(C)(C)[C@@H]5CC[C@@]4(C)[C@]3(C)CC[C@@]2(CC(=O)NC(F)(CCCN)CNC(=O)c2ccc(Cl)cc2)CC1=O	p24 / ELISA		92HT599	MT-2		<1 µM
CCOC(C(=O)O)c1c(C)nc2ccc(Cl)cc2c1-c1ccc(OC)cc1	luciferase / reporter gene			C8166		<20 µM
Cc1ccnc2c1NC(=O)c1cccnc1N2C1CC1	p24 / ELISA		A17	TZM-bl	K103N/Y181C	>10 µM
CCc1cc(C#N)cc(C(=O)c2cc(Cl)ccc2OCC(=O)Nc2ccc(S(N)(=O)=O)cc2C)c1	β-galactosidase		HXB2	HeLa + HELA CD4+	RT-V108I	<0.01 µM
COc1ccc(-c2c(C(OC(C)C)C(=O)O)c(C)nc3ccc(Cl)cc23)cn1	luciferase / reporter gene			C8166		<20 µM
Nc1ccn([C@@H]2C=C(F)[C@H](CO)O2)c(=O)n1	PCR		BRU	PBMC		<0.6 µM
Cc1cncc(C(=O)NC(C)(C)CNCC[C@@]23CC[C@]4(C)[C@H](CC[C@@H]5[C@@]6(C)CC[C@H](OC(=O)[C@H]7C[C@@H](C(=O)O)C7(C)C)C(C)(C)[C@@H]6CC[C@]54C)C2=C(C(C)C)C(=O)C3)n1	p24 / ELISA		92HT599	MT-2		<1 µM
Cc1ccc(OCCN(C)c2ccc(-c3cnc(C)c([C@H](OC(C)(C)C)C(=O)O)c3N3CCC(C)(C)CC3)nc2)c(Cl)c1	luminescence		NL4-3	MT-2		0.0016 µM
Cc1cc(S(N)(=O)=O)ccc1NC(=O)COc1ccc(Cl)cc1C(=O)c1cccc(C#N)c1	β-galactosidase		HXB2 (RT-K103N Y181C) Recombinant	HeLa + HELA CD4+	RT-K103N Y181C	0.011–0.1 µM
Cc1ccc(OCCOc2ccc(-c3cnc(C)c([C@H](OC(C)(C)C)C(=O)O)c3N3CCC(C)(C)CC3)nc2)c(Cl)c1	luminescence		NL4-3	MT-2		0.0004 µM
Cc1nc2ccc(Cl)cc2c(-c2ccc(Cl)cc2)c1C(OC(C)C)C(=O)O	luciferase / reporter gene			C8166		<20 µM
Cc1cncc(C(=O)N(CCN(C)C)CC[C@@]23CC[C@]4(C)[C@H](CC[C@@H]5[C@@]6(C)CC[C@H](OC(=O)[C@H]7C[C@@H](C(=O)O)C7(C)C)C(C)(C)[C@@H]6CC[C@]54C)C2=C(C(C)C)C(=O)C3)n1	p24 / ELISA		92HT599	MT-2		<1 µM
Cc1ccc(OCCN(C)c2ccc(-c3cnc(C)c([C@H](OC(C)(C)C)C(=O)O)c3N3CCC(C)(C)CC3)cn2)c(Cl)c1	luminescence		NL4-3	MT-2		0.004 µM
Cc1cc(C#N)cc(C(=O)c2cc(Cl)ccc2OCC(=O)Nc2ccc(S(N)(=O)=O)nc2C)c1	β-galactosidase		HXB2 (RT-K103N G190A) Recombinant	HeLa + HELA CD4+	RT-K103N G190A	<0.01 µM
C[C@H]1[C@H](O)[C@@H](C)/C=C/C=C/C=C/C=C/C=C/C=C/C=C/[C@H](O[C@@H]2O[C@H](C)[C@@H](O)[C@H](N)[C@@H]2O)C[C@@H]2O[C@](O)(C[C@@H](O)C[C@@H](O)CC[C@H](O)[C@@H](O)C[C@@H](O)CC(=O)O[C@H]1C)C[C@H](O)[C@H]2C(=O)O	p24 / RT activity		92BR014 CLADE B X4/R5 (SI)	PBMC		2.6 µM
Cc1cc(OCCCS(N)(=O)=O)ccc1NC(=O)COc1ccc(Cl)cc1C(=O)c1cc(F)cc(C(F)(F)F)c1	cytopathic effect / propidium iodide		IIIB	MT-4		<0.01 µM
COc1cccc2[nH]cc(C(=O)C(=O)N3CCN(C(=O)c4ccccc4)C[C@H]3C)c12	virus yield		A018	MT-2/CXCR4		0.0236 µM